Assay results published in paper PMC11236204 (PLOS Pathogens, 2024).

Experiments:
[1] = test system: California Encephalitis virus (CEV); conditions: rat neurons; 10μg/mL; MOI 0.05; 24hpi
La Crosse virus (LACV) [2] = conditions: rat neurons; 10μg/mL
La Crosse virus (LACV) [3] = conditions: U2OS; 10μg/mL; MOI 0.1; 15hpi
Cxcl1, Ccl2 RNA = test: Cxcl1 and Ccl2 RNA levels in the mouse brain, 3 dpi; conditions: for CXCL1 RNA / 28s RNA: Figure 6D; for CXCL1 RNA / 28s RNA / CCL2 RNA / 28s RNA: Uninfected; for CCL2 RNA / 28s RNA: Figure 6E
[4] = test system: Punta Toro virus-Balliet (PTV); conditions: U2OS; 10μg/mL; MOI 2; 15hpi
La Crosse virus (LACV) [5] = test: LACV infection, automated microscopy, rat neurons; conditions: four hours before infection, MOI 0.01, 24h
[6] = test system: California Encephalitis virus (CEV); conditions: U2OS; 10μg/mL; MOI 5; 24hpi

## CCCCCCCCCCCCCCCC(=O)N[C@@H](CSCC(COC(=O)CCCCCCCCCCCCCCC)OC(=O)CCCCCCCCCCCCCCC)C(=O)N[C@@H](CO)C(=O)N[C@@H](CCCCN)C(=O)N[C@@H](CCCCN)C(=O)N[C@@H](CCCCN)C(=O)N[C@@H](CCCCN)C(=O)O (some centres unmarked) [Pam3CSK4]
[1]
  CEV infection in neurons (plaque assay and qPCR): decreased
La Crosse virus (LACV) [2]
  LACV infection in neurons (plaque assay and qPCR): decreased
La Crosse virus (LACV) [3]
  antiviral activity against LACV: antiviral activity
Cxcl1, Ccl2 RNA; 5 PFU infection, 3 dpi
  Ccl2 levels in the brain: decreased Ccl2 levels
Cxcl1, Ccl2 RNA; 5 PFU, 3 days
  decrease of Cxcl1 levels relative to infected, vehicle-treated animals: approximately 10 fold
Cxcl1, Ccl2 RNA; mouse 1
  CXCL1 RNA / 28s RNA: 4.40E-04
  CCL2 RNA / 28s RNA: 6.52E-05
Cxcl1, Ccl2 RNA; mouse 2
  CXCL1 RNA / 28s RNA: 1.31E-04
  CCL2 RNA / 28s RNA: 9.62E-06
Cxcl1, Ccl2 RNA; uninfected animals, 3 dpi
  Ccl2 expression in the brain: induced Ccl2 expression
Cxcl1, Ccl2 RNA; uninfected animals, 3 days
  induction of Cxcl1 in the brain: approximately 10 fold
[4]
  antiviral activity against PTV: antiviral activity
La Crosse virus (LACV) [5]
  LACV infection (dose response, microscopy): inhibited LACV
[6]
  antiviral activity against CEV: no antiviral activity
